Laboratory results: PubChem BioAssay AID1259414 (Drosophila RNAi Screening Center, 2018)
Purpose: 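Genome-wide screen for host control of endosymbiont load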 (primary screen). Cell system: Drosophila JW18 cells infected with Wolbachia. Reagents: long dsRNA against Drosophila genes, 0.25 µg dsRNA per well of a 384-well plate. Duration: 5 days. Treatment: cells persistently infected with Wolbachia before knock-down; no added drug. Measurement: 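Automated imaging of bacterial rRNA staining divided by host cell count, reported as plate-normalised robust z-score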. Reading the numbers: Wolbachia per cell robust z: higher = more Wolbachia per host cell than the plate typical. Call rule: 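Hit when robust z is 1.5 or more, or -1.5 or less, in at least two of three replicates; excludes dsRNAs with several or no targets, genes not expressed in JW18 and well A1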.
The screen tested about 24,000 reagents; below is a random part of those with a known target gene and a result. In the full data, about 1,210 (5%) are marked active. 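Inactive calls also include excluded dsRNAs with several or no targets, genes unexpressed in JW18, and well A1, regardless of score.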 A plus sign joins genes that one reagent is predicted to hit. No sequences are given here.

predicted target | PubChem SID | Wolbachia per cell robust z, rep 1 | Wolbachia per cell robust z, rep 2 | Wolbachia per cell robust z, rep 3 | activity call
CG17803 | SID104195067 | -1.37 | -0.0284 | 0.198 | inactive
CG17803 | SID104202170 | -2.96 | -3.42 | -0.561 | active
Gat (GABA transporter) | SID104196936 | -4.18 | -0.29 | -6.48 | inactive
fs(1)K10 (female sterile (1) K10) | SID104198567 | 1.08 | -0.0565 | 0.641 | inactive
fs(1)K10 (female sterile (1) K10) | SID104203804 | 0.529 | 1.17 | -0.733 | inactive
Gadd45 (Growth arrest and DNA damage-inducible 45) | SID104185825 | 0.207 | 1.15 | 0.489 | inactive
l(2)k05819 (lethal (2) k05819) | SID104180618 | 0.424 | -2.02 | -1.51 | active
mus302 (mutagen-sensitive 302) | SID104189697 | 0.879 | 0.833 | 1.43 | inactive
CG32640 + CG32641 | SID104202244 | 1.1 | -0.694 | 0.631 | inactive
CG15888 | SID104194917 | 0.632 | 0.506 | 0.368 | inactive
CG15888 | SID104205074 | -2.52 | -1.11 | 0.367 | inactive
Tpc1 | SID104195406 | 0.695 | -1.71 | -0.0898 | inactive
Tpc1 | SID104195866 | -0.216 | -3.63 | 0.0842 | inactive
Tpc1 | SID104208034 | -1.45 | -0.582 | -0.834 | inactive
CG14499 | SID104186262 | 0.0836 | -0.272 | -0.399 | inactive
eIF3m (eukaryotic translation initiation factor 3 subunit m) | SID104186934 | 1.35 | 2.65 | 3.42 | active
eIF3m (eukaryotic translation initiation factor 3 subunit m) | SID104205452 | 1.32 | 1.38 | 2.61 | inactive
CG34166 | SID104182274 | -0.0676 | -0.658 | -0.879 | inactive
CG34166 | SID104206478 | -0.146 | 1.54 | 0.68 | inactive
CG34166 | SID104216676 | 0.0657 | -0.0666 | 0.529 | inactive
CG17298 | SID104195013 | 0.445 | 1.53 | 1.32 | inactive
CG17298 | SID104206441 | -3.67 | -0.0339 | 0.87 | inactive
Grl62b (Gustatory receptor-like 62b) | SID104218156 | 0.0954 | -0.138 | 0.482 | inactive
Ance-2 | SID104182331 | 0.56 | 0.659 | 0.0409 | inactive
IRSp53 (Insulin receptor substrate 53 kDa) | SID104190683 | 1.52 | 1.58 | 1.44 | inactive
CG3649 | SID104184192 | 0.249 | 0.618 | -2.39 | inactive
CG3649 | SID104207272 | 0.27 | -0.761 | -1.73 | inactive
Sodq (Sodesque) | SID104195716 | 0.761 | -1.83 | -1.58 | inactive
Sodq (Sodesque) | SID104206299 | 0.152 | -0.389 | -0.798 | inactive
alpha-Man-Ic (alpha-Mannosidase class I c) | SID104201357 | -0.758 | 0.912 | 0.939 | inactive
alpha-Man-Ic (alpha-Mannosidase class I c) | SID104206053 | 1.81 | 0.625 | 0.409 | inactive
Ir40a (Ionotropic receptor 40a) | SID104183524 | 0.129 | -0.0714 | -0.296 | inactive
Ir40a (Ionotropic receptor 40a) | SID104183525 | 0.629 | -3.03 | 1.26 | inactive
CG6696 | SID104199796 | -0.833 | -0.892 | -0.176 | inactive
CG6696 | SID104204192 | -0.891 | -0.251 | 0.0879 | inactive
mbc (myoblast city) | SID104196787 | 0.927 | 0.48 | -0.295 | inactive
Pi3K59F (Phosphatidylinositol 3-kinase 59F) | SID104184432 | 0.159 | 0.62 | -0.0761 | inactive
Pi3K59F (Phosphatidylinositol 3-kinase 59F) | SID104207434 | -0.608 | 0.04 | -0.0392 | inactive
qkr58E-2 (quaking related 58E-2) | SID104184502 | 0.0548 | -2.16 | -4.55 | active
qkr58E-2 (quaking related 58E-2) | SID104203842 | 0.486 | 0.316 | 1.6 | inactive
Snap25 (Synaptosomal-associated protein 25kDa) | SID104201020 | 0.145 | 0.00517 | -0.872 | inactive
Snap25 (Synaptosomal-associated protein 25kDa) | SID104201028 | 0.338 | -0.305 | 0.963 | inactive
MsrA (Methionine sulfoxide reductase A) | SID104190951 | -2.21 | -0.238 | -2.83 | active
Mdr50 (Multi drug resistance 50) | SID104187259 | 0.0643 | -1.66 | -2.44 | active
Mdr50 (Multi drug resistance 50) | SID104202854 | 0.855 | -0.335 | -0.675 | inactive
twy (twitchy) | SID104190354 | 0.394 | 0.481 | -0.483 | inactive
Kal1 (Kallmann syndrome 1) | SID104195775 | 0.662 | 0.485 | 0.961 | inactive
CG3589 | SID104184184 | -0.542 | 0.753 | -0.391 | inactive
CG3589 | SID104205299 | -0.448 | 1.74 | -1.45 | inactive
LManI (Lysosomal alpha-mannosidase I) | SID104182630 | -1.47 | 0.558 | 0.0584 | inactive
LManI (Lysosomal alpha-mannosidase I) | SID104203377 | -0.0802 | 0.0267 | 0.274 | inactive
LManI (Lysosomal alpha-mannosidase I) | SID104216591 | 0.36 | -0.473 | 0.704 | inactive
Sras (severas) | SID104191079 | -1.02 | -2.46 | 1.13 | inactive
CG34265 | SID104216427 | 0.826 | 0.645 | 0.447 | inactive
tamo | SID104184238 | -0.827 | 0.543 | 0.324 | inactive
tamo | SID104203465 | 1.71 | -0.967 | -0.239 | inactive
sit (stuck in traffic) | SID104195552 | -1.01 | -1.84 | -0.635 | inactive
sit (stuck in traffic) | SID104203796 | -0.723 | -2.84 | -0.0255 | inactive
CG31482 | SID104192374 | -0.59 | -0.0281 | 0.0486 | inactive
CG9395 | SID104183010 | 0.711 | 0.235 | 0.671 | inactive
CG9395 | SID104205120 | 0.319 | 0.133 | 0.809 | inactive
CG15252 | SID104197773 | -4.73 | -1.23 | -1.12 | inactive
CG15252 | SID104208189 | 0.387 | 0.641 | 0.943 | inactive
Wbp2 (WW domain binding protein 2) | SID104203564 | -0.5 | -0.558 | 0.0312 | inactive
Ms (Myosuppressin) | SID104195833 | 0.22 | -6.59 | 0.0979 | inactive
Ms (Myosuppressin) | SID104208318 | -0.664 | 0.322 | 1.06 | inactive
Cyt-c-d (Cytochrome c distal) | SID104183101 | -0.0325 | 0.243 | -0.292 | inactive
Cyt-c-d (Cytochrome c distal) | SID104208595 | 0.745 | -1.4 | 0.794 | inactive
